Measured values: US20140073631A1 (priority 2012, published 2014)

Legend:
Assay type in all cases: cell-based
[1] = system: HIV-1 ROJO (low passage clinical strain); test: PBMC assay, virus production by reverse transcriptase activity; conditions: TC50/IC50, PBMC
HIV-1 = test: CEM-SS microtiter antiviral XTT cytoprotection assay
[2] = system: Flu A H3N2 California/7/04; test: Anti-influenza testing, visual and NR assays; conditions: MDCK
[3] = system: Flu A H1N1 New Caledonia/20/99; test: Anti-influenza testing, visual and NR assays; conditions: MDCK

Cc1cn([C@H]2C[C@H](N=[N+]=[N-])[C@@H](CO)O2)c(=O)[nH]c1=O [AZT, reference compound]
TI [1]: TI = >40.0

N=C(NCCCCCCNC(=N)NC(=N)N1CCN(c2cc3c(cc2F)c(=O)c(C(=O)O)cn3C2CC2)CC1)NC(=N)N1CCN(c2cc3c(cc2F)c(=O)c(C(=O)O)cn3C2CC2)CC1 [BVS-10A]
therapeutic index (HIV-1; CEM-SS cells): > 10
SI (HIV-1; CEM-SS, plate head): SI: >6.01
ANTIVIRAL INDEX (AI) 25% (HIV-1; TC25/IC25, CEM-SS): >8.33
ANTIVIRAL INDEX (AI) 50% (HIV-1; TC50/IC50, CEM-SS): >6.01
ANTIVIRAL INDEX (AI) 95% (HIV-1; TC95/IC95, CEM-SS): >3.34
TI [1]: approximately 50
TI ([1]; listed as BVS 10A): TI = >39.4

O=C1C2C=CC=C([N+](=O)[O-])C2(C(=O)O)C(c2ccccc2)N1c1ccc(O)cc1 (stereo not shown) [BVS-45]
Si ([2]; Neutral Red assay, trial 1): 340
Si ([2]; Virus Yield assay, trial 2): >667
Si ([2]; Visual assay, trial 1): >1786
Si ([2]; Visual-CONF assay, trial 2): >1786
Si ([3]; Virus Yield assay, trial 2): 0
Si ([3]; Visual assay, trial 1): >580
Si ([3]; Visual-CONF assay, trial 2): >560

N#CNC(=N)NC1C2CC3CCC1(NC(=N)NC#N)CC3C2 (stereo not shown) [BVS-47]
Si ([3]; Neutral Red assay, trial 1): >280
